Test results reported in publication PMC6081459, “Pathogen-derived HLA-E bound epitopes reveal broad primary anchor pocket tolerability and conformationally malleable peptide binding” (Nature Communications, 2018).

Legend:
HLA-E-β2m complexes [1] = format: binding, human
HLA-E-β2m complexes [2] = system: HLA-E-β2m complexes; parameters: species or system human; conditions: Cf compact form, Df diffuse form

Row | Sequence | BN-PAGE gel signature after UV-mediated peptide exchange (HLA-E-β2m complexes [1]) | BN-PAGE gel signature of complex refolded with peptide (HLA-E-β2m complexes [2])
1 | RLPAKAPLL [Mtb44] | clear Cf signature | singular, compactly formed bands
2 | RMYSPTSIL [RL9HIV] | both diffuse and compact gel forms | resolved heterogeneously as two main bands
3 | VMAPRTVLL [VL9, reference compound] | – | singular, compactly formed bands
